# Measured data: PubChem BioAssay AID624099 (ICCB-Longwood, 2012)
# Purpose: 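Human genes that papillomavirus E2 requires to repress the HPV18 LCR promoter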 (primary screen)
# Cells: human C33A cervical carcinoma cells (HPV-negative) stably expressing BPV1 E2 and an HPV18 LCR luciferase reporter
# Reagent: siRNA pool against human genes, 40 nM
# Time to read-out: 72 h
# Detection: 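HPV18 LCR reporter light per well, converted to plate-wise z-scores that exclude control wells, and averaged over triplicate plates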
# Scale: mean z-score and z-score: higher = stronger reporter signal, weaker E2 silencing
# Rule for the call: 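Hit if mean z-score reaches 2 and two or more of three replicate z-scores also reach 2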
# Shown is an unselected part of about 21,000 deposited reagents. 497 of all reagents (2.4%) count as active. 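Higher z means weaker E2 silencing; only reporter increases were scored, and knock-downs that hurt cell survival may mask genuine repressor factors.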 Unmarked entries are inactive.
Gene,mean z-score,"z-score, replicate A","z-score, replicate B","z-score, replicate C"
RAB1B,0.05,-0.48,0.29,0.33
OLMALINC,-0.19,-0.27,-0.26,-0.04
ZKSCAN3,-0.59,-0.75,-0.62,-0.41
SLAMF7,0.57,0.99,0.61,0.1
LAMC3,0.23,0.52,0.16,0.02
FAM180B,1.39,0.75,2.38,1.04
COXFA4L2,-0.56,-0.7,-0.51,-0.45
TOM1L1,1.59,1.47,1.53,1.75
ACER3,0.54,-0.04,1.05,0.59
DEPDC1B,0.21,0.22,0.38,0.03
SLC2A13,-0.31,0.02,-0.22,-0.73
LINC00355,1.27,1.46,1.53,0.81
PCDHA13,-0.28,-0.13,-0.37,-0.33
NDUFA11,-0.06,0.34,-0.23,-0.27
SMIM21,-0.39,-0.58,0.04,-0.64
HNRNPH2,1.61,1.63,1.57,1.63
LOC389801 (retired record),-0.17,-0.03,-0.14,-0.34
TTC3,1.75,1.52,1.6,2.12
OR8J1,-0.53,-0.46,-0.59,-0.55
CCNG2,-0.45,-0.43,-0.52,-0.41
TMSB4X,0.08,0.32,0.04,-0.13
LINC03124,-0.67,-0.64,-0.78,-0.6
NCBP1,-1.21,-0.86,-1.21,-1.56
ILRUN,-0.65,-0.79,-0.51,-0.64
FAM8A1,-1.13,-0.7,-1.11,-1.58
MAPK12,-2.05,-1.99,-2.14,-2.03
BBS10,-0.28,-0.28,-0.59,0.02
DENND5A,0.18,0.08,0.4,0.04
RBMY1D,-0.37,-0.8,0,-0.3
TMEM101,1.15,1.3,0.99,1.16
IFI30,-0.22,0.42,-0.41,-0.67
NAT8B,-0.09,0.45,-0.73,0.02
MRFAP1L2,-0.85,-0.79,-0.58,-1.2
TMED3,-0.54,-0.33,-0.78,-0.52
CAPN8,-0.98,-0.55,-1.27,-1.12
ZNF687,-0.55,-0.08,-0.83,-0.73
MREG,-0.06,-0.21,-0.34,0.39
ZNF79,0.15,0.31,0.02,0.13

8 entries from above, reformatted.
IFI30: mean z-score = -0.22; z-score, replicate A = 0.42; z-score, replicate B = -0.41; z-score, replicate C = -0.67
NAT8B: mean z-score = -0.09; z-score, replicate A = 0.45; z-score, replicate B = -0.73; z-score, replicate C = 0.02
MRFAP1L2: mean z-score = -0.85; z-score, replicate A = -0.79; z-score, replicate B = -0.58; z-score, replicate C = -1.2
TMED3: mean z-score = -0.54; z-score, replicate A = -0.33; z-score, replicate B = -0.78; z-score, replicate C = -0.52
CAPN8: mean z-score = -0.98; z-score, replicate A = -0.55; z-score, replicate B = -1.27; z-score, replicate C = -1.12
ZNF687: mean z-score = -0.55; z-score, replicate A = -0.08; z-score, replicate B = -0.83; z-score, replicate C = -0.73
MREG: mean z-score = -0.06; z-score, replicate A = -0.21; z-score, replicate B = -0.34; z-score, replicate C = 0.39
ZNF79: mean z-score = 0.15; z-score, replicate A = 0.31; z-score, replicate B = 0.02; z-score, replicate C = 0.13

Further records follow.
Gene,mean z-score,"z-score, replicate A","z-score, replicate B","z-score, replicate C"
CLIP3,0.17,0.26,0.15,0.11
PRY2,-0.5,-0.48,-1.04,0.01
MYCBP2,-0.45,-0.24,-0.92,-0.19
ULBP1,-0.51,-0.29,-0.61,-0.62
FRMPD4,-0.35,-0.46,-0.31,-0.29
LOC388139 (retired record),0.23,-0.04,0.41,0.33
KCNC1,-0.81,-0.61,-0.77,-1.04
CCT6A,0.57,0.71,0.4,0.6
LOC286080 (retired record),-1.47,-0.73,-1.88,-1.8
LOC221140 (retired record),-0.84,-1.22,-0.37,-0.94
HSD11B1,1.31,1.47,1.64,0.82
SEMA7A,-1.09,-0.84,-1.02,-1.42
ANXA11,-0.79,-1.47,-0.69,-0.22
SLC25A44,0.47,0.51,0.41,0.51
RIMOC1,0.95,0.78,0.99,1.06
MTCP1,-0.78,-0.66,-0.92,-0.74
MAP4K3,-1.47,-1.55,-1.48,-1.38
ALPG,-0.02,-0.13,0.05,0.03
LAP3P2,-0.25,-0.51,-0.09,-0.15
